{"source": "ChEMBL document CHEMBL1155465", "about": "“\"Viologen\" dendrimers as antiviral agents: the effect of charge number and distance” (J Med Chem, 2010)", "key": {"[1]": {"system": "Human immunodeficiency virus 1", "experiment": "Antiviral activity against HIV1 3B infected in human MT4 cells after 5 days by MTT assay", "conditions": "strain 3B"}, "[2]": {"experiment": "Selectivity index, ratio of CC50 for human MT4 cells to EC50 for HIV1 3B", "type": "toxicity, cell-based", "method_in_brief": "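MT-4 cells in RPMI 1640 with 10% heat-inactivated FCS, 2 mM L-glutamine, 0.1% bicarbonate and gentamicin, seeded at 6 × 10⁵ cells/mL final with virus or mock infection. Viability read by MTT after 5 days at 540 and 690 nm, using the median OD of three wells. CC50 is 50% loss of mock-infected OD540. EC50 is 50% inhibition of virus-induced CPE. SI = CC50/EC50. Mean ± SD of ≥2 experiments.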"}}, "data": [{"smiles": "O=[N+]([O-])c1ccc(-[n+]2ccc(-c3cc[n+](-c4ccc([N+](=O)[O-])cc4[N+](=O)[O-])cc3)cc2)c([N+](=O)[O-])c1", "values": [{"measurement": "EC50", "setting": "[1]", "result": "> 42.2", "unit": "µM"}]}, {"smiles": "F[P-](F)(F)(F)(F)F.F[P-](F)(F)(F)(F)F.O=[N+]([O-])c1ccc(-[n+]2ccc(-c3cc[n+](-c4ccc([N+](=O)[O-])cc4[N+](=O)[O-])cc3)cc2)c([N+](=O)[O-])c1", "values": [{"measurement": "Ratio CC50/EC50", "setting": "[2]", "result": "≤ 2.54"}]}]}
